This is an account of results in ChEMBL document CHEMBL1155465, “"Viologen" dendrimers as antiviral agents: the effect of charge number and distance” (J Med Chem, 2010).

A value given as a limit tells only on which side of the number the result lay.

Series [1] can be described thus: Selectivity index, ratio of CC50 for human MT4 cells to EC50 for HIV1 3B. It counts as toxicity, cell-based. In outline: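 MT-4 cells in RPMI 1640 with 10% heat-inactivated FCS, 2 mM L-glutamine, 0.1% bicarbonate and gentamicin, seeded at 6 × 10⁵ cells/mL final with virus or mock infection. Viability read by MTT after 5 days at 540 and 690 nm, using the median OD of three wells. CC50 is 50% loss of mock-infected OD540. EC50 is 50% inhibition of virus-induced CPE. SI = CC50/EC50. Mean ± SD of ≥2 experiments.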

The test system of series [2] is Human immunodeficiency virus 1. Kind of series: Antiviral activity against HIV1 3B infected in human MT4 cells after 5 days by MTT assay. The note with it: strain 3B. (Formazan colour is commonly taken as a measure of viable cells.)

As to `F[P-](F)(F)(F)(F)F.F[P-](F)(F)(F)(F)F.O=[N+]([O-])c1ccc(-[n+]2ccc(-c3cc[n+](-c4ccc([N+](=O)[O-])cc4[N+](=O)[O-])cc3)cc2)c([N+](=O)[O-])c1`, the Ratio CC50/EC50 in series [1] was at most 2.54. For the compound `O=[N+]([O-])c1ccc(-[n+]2ccc(-c3cc[n+](-c4ccc([N+](=O)[O-])cc4[N+](=O)[O-])cc3)cc2)c([N+](=O)[O-])c1`, the EC50 in series [2] was over 42.2 µM.

The term EC50 denotes the midpoint of the concentration-response curve. A low value points to greater potency.
